A mixed list of measured activities; the numbers were collected in NIAID ChemDB.

Shared fields: cytotoxicity tests; cell line: DAUDI; measure: CC50

CCn: concentration that lowers growth or viability of the cells by n%.

structure,value
Nc1nc2c(ncn2[C@H]2C[C@]23C[C@H]3CO)c(=O)[nH]1,>199 µM
OC[C@H]1O[C@@H](n2c(Br)nc3cc(Cl)c(Cl)cc32)[C@H](O)[C@@H]1O,>125 µM
Nc1ncnc2c1ncn2/C=C1/CC1(CO)CO,81 µM
CC(C)Nc1nc2cc(Cl)c(Cl)cc2n1[C@H]1O[C@@H](CO)[C@H](O)[C@@H]1O,>77 µM
COC(=O)C(C)NP(=O)(OC[C@@H]1C/C1=C/n1cc(N)c(=O)[nH]c1=O)Oc1ccccc1,>100 µM
Nc1ncnc2c1ncn2[C@H]1C[C@]12C[C@H]2CO,>202 µM
Nc1cn(C=C2C[C@H]2CO)c(=O)[nH]c1=O,>259 µM
NC[C@H]1C[C@@H](n2cnc3c(N)ncnc32)[C@H](O)[C@@H]1O,23.6 µg/mL
Nc1nc(OCC2CC2)c2ncn(/C=C3/C[C@@H]3CO)c2n1,148 µM
COC(=O)[C@H](C)NP(=O)(OCC1C/C1=C\n1cnc2c(N)ncnc21)Oc1ccccc1,65 µM
Nc1ccn(C[C@H]2COP(=O)(O)CO2)c(=O)n1,>166 µM
Nc1ncnc2c1ncn2C=C1CC1CO,>230 µM
Nc1ncnc2c1ncn2[C@H]1C[C@@]12C[C@@H]2CO,>216 µM
Nc1nc(NC2CC2)c2ncn(C=C3CC3CO)c2n1,27.9 µM
CCCCCCCC/C=C\CCCCCCCOCCCOP(=O)(O)CO[C@H](CO)Cn1ccc(N)nc1=O,>1 µM
Nc1ncnc2c1ncn2[C@H]1C[C@]12C[C@@H]2CO,15 µM
Nc1nc2c(ncn2C/C=C2/CC2P(=O)(O)O)c(=O)[nH]1,>300 µM
COc1nc(N)nc2c1ncn2C=C1CC1CO,162 µM
COC(=O)C(Cc1c[nH]c2ccccc12)NP(=O)(O)OCC1C/C1=C/n1cnc2c(N)ncnc21,57 µM
Nc1nc2c(ncn2C=C2CC2CO)c(=O)[nH]1,>214 µM
Nc1nc2c(ncn2C=C2CC2(F)CO)c(=O)[nH]1,>199 µM
Nc1nc(Cl)c2ncn(/C=C3/C[C@H]3CO)c2n1,>199 µM
Nc1nc(NCc2ccccc2)c2ncn(/C=C3/C[C@@H]3CO)c2n1,>155 µM
CCCCCCCC/C=C\CCCCCCCOCCOP1(=O)CO[C@@H](Cn2ccc(N)nc2=O)CO1,>0.8 µM
COC(=O)C(C)NP(=O)(OC[C@@H]1C/C1=C\n1cc(N)c(=O)[nH]c1=O)Oc1ccccc1,>100 µM
Nc1nc(N)c2ncn(/C=C3\CC3(CO)CO)c2n1,>191 µM
Nc1nc(Cl)c2ncn(/C=C3/C[C@H]3CO)c2n1,>191 µM
CCCCCCCCCCCCCCCCCOC[C@H](COP1(=O)CO[C@@H](Cn2ccc(N)nc2=O)CO1)OCc1ccccc1,>0.9 µM
Nc1ncnc2c1ncn2[C@H]1C[C@@]12C[C@H]2CO,202 µM

For reference, 4 entries again:

Nc1nc(NCc2ccccc2)c2ncn(/C=C3/C[C@@H]3CO)c2n1 ; value: >155 µM
Nc1ncnc2c1ncn2/C=C1/CC1(CO)CO ; value: 81 µM
Nc1nc2c(ncn2C/C=C2/CC2P(=O)(O)O)c(=O)[nH]1 ; value: >300 µM
Nc1nc(NC2CC2)c2ncn(C=C3CC3CO)c2n1 ; value: 27.9 µM

Conditions beyond the fields shown may differ between rows.